A mixed list of measured activities; the numbers were collected in NIAID ChemDB.

Common to all: tests on isolated targets; organism: HIV-1; target: Reverse transcriptase; read by: RT activity; measure: inhibition

An empty or dashed field is not shown.

| compound | conditions | strain or isolate | mutations | tested at | result |
|---|---|---|---|---|---|
| CCCCCCCCCCCCCCCC(=O)NCC1OC(n2cnc3c(N)ncnc32)C(OP(=O)(O)OCC2OC(n3cnc4c(N)ncnc43)C(OP(=O)(O)OCC3CC(O)C(n4cnc5c(N)ncnc54)O3)C2O)C1O |  | IIIB |  | 100 µM | 60.2% |
| O=C(Oc1cc(S(=O)(=O)O)cc2cc(S(=O)(=O)O)ccc12)c1ccc(-c2ccc(C(=O)Oc3cc(S(=O)(=O)O)cc4cc(S(=O)(=O)O)ccc34)cc2)cc1 |  |  |  | 50 µM | 99.8% |
| C=C(C)C1CC[C@]2(C(=O)O)CC[C@]3(C)C(CCC4[C@@]5(C)C[C@@H](C(=O)[O-])[C@H](O)C(C)(C)C5CC[C@]43C)C12 |  |  |  | 200 µg/mL | 76.8% |
| CO[C@@H]1[C@H](O)[C@@H](COP(=O)(O)O[C@H]2C[C@H](n3cnc4c(=O)[nH]c(N)nc43)O[C@@H]2CO)O[C@H]1n1cnc2c(=O)[nH]c(N)nc21 |  |  |  | 100 µM | 6% |
| Cc1ccc(S(=O)(=O)c2c(C)[nH]c3ccccc23)cc1 |  |  | K103N | 100 µM | 64% |
| COc1c(O)cc(-c2cc(=O)c3c(O)c(OC)c(O)cc3o2)cc1O |  |  |  | 200 µg/mL | 88.1% |
| Nc1nc2c(ncn2[C@@H]2O[C@H](COCO[C@H]3[C@@H](O)[C@H](n4cnc5c(=O)[nH]c(N)nc54)O[C@@H]3CO)[C@@H](O)[C@H]2O)c(=O)[nH]1 |  |  |  | 100 µM | 14% |
| CCCCCCCCCCCCCCCC(=O)Nc1ccc(S(=O)(=O)O)c2ccccc12 |  |  |  | 50 µM | 2% |
| C=CCOCc1cn(C2CCON2C(=O)OCc2ccccc2)c(=O)[nH]c1=O |  |  |  | 0.1 µM | 100% |
| CC(=O)NC1C(O)OC(CO)C(O)C1OC1OC(C(=O)[O-])C(OC2OC(CO)C(O)C(OC3OC(C(=O)[O-])C(O)C(O)C3O)C2NC(C)=O)C(O)C1O.[Na+].[Na+] |  |  |  | 50 µg/mL | 10% |
| CCOc1cc(-c2nccc3cc(OC)c(OC)cc23)cc(OCC)c1OCC | 3 d |  |  | 1 µM | 38.9% |
| O=C1C2=C(SCCS2)C(=O)N1CCCCN1CCN(c2ccccc2)CC1 |  |  |  | 200 µg/mL | 82.2% |
| O=C(Nc1ccc(S(=O)(=O)O)c2cccc(S(=O)(=O)O)c12)c1ccc(C(=O)Nc2ccc(S(=O)(=O)O)c3cccc(S(=O)(=O)O)c23)cc1 |  |  |  | 50 µM | 8% |
| Cc1ccc(S(=O)(=O)c2c(-c3ccccc3)[nH]c3ccccc23)cc1 |  |  | WT | 100 µM | 58% |
| CCO[P+](O)(OCC)[C@@H]1C[C@H](C[N+]2=CC(F)C(=O)NC2=O)N(C)O1 |  |  |  | 90 µM | 100% |
| O=C(CCCCCCCCC(=O)Nc1cc(S(=O)(=O)O)cc2cc(S(=O)(=O)O)cc(O)c12)Nc1cc(S(=O)(=O)O)cc2cc(S(=O)(=O)O)cc(O)c12 |  |  |  | 50 µM | 70% |
| C#CCOCc1cn(C2CCON2C(=O)OCc2ccccc2)c(=O)[nH]c1=O |  |  |  | 1 µM | 100% |
| CC[C@H](/C=C/[C@@H](C)[C@H]1CC[C@H]2[C@@H]3CC=C4C[C@@H](O[C@@H]5O[C@H](CO)[C@@H](O)[C@H](O)[C@H]5O)CC[C@]4(C)[C@H]3CC[C@]12C)C(C)C |  |  |  | 200 µg/mL | 0% |
| O=C(OCc1ccccc1)N1OCCC1n1cc(COCc2ccccc2)c(=O)[nH]c1=O |  |  |  | 0.01 µM | 100% |
| COc1c(O)cc(-c2cc(=O)c3c(O)c(OC)c(O)cc3o2)c(O)c1OC |  |  |  | 200 µg/mL | 1.4% |
| CCCCCCCCCCCCCCCC(=O)Oc1cc(S(=O)(=O)O)c2ccccc2c1N |  |  |  | 50 µM | 92.5% |
| O=C(OCc1ccccc1)N1OCCC1n1cc(COCc2cn(CCO)nn2)c(=O)[nH]c1=O |  |  |  | 100 µM | 100% |
| Nc1ccc(S(=O)(=O)O)c2cccc(S(=O)(=O)O)c12 |  |  |  | 50 µM | 0% |
| Nc1nc2c(ncn2[C@@H]2O[C@H](COP(=O)(O)O[C@H]3[C@@H](F)[C@H](n4cnc5c(NCc6ccc7ccccc7c6)ncnc54)O[C@@H]3CO)[C@@H](O)[C@H]2O)c(=O)[nH]1 |  |  |  | 100 µM | 7% |
| O=C(CCCCCCCCC(=O)Nc1ccc(S(=O)(=O)O)c2cccc(S(=O)(=O)O)c12)Nc1ccc(S(=O)(=O)O)c2cccc(S(=O)(=O)O)c12 |  |  |  | 50 µM | 46% |
| C/C1=C\C=C\C2(C)C=C(CO[C@H]3O[C@H](CO)[C@H](O)[C@H](O)[C@H]3O)C(C)CC23OC([O-])C(C3=O)C(O)/C=C/C2(C)C=C(C=O)C(C)CC23OC([O-])C(C3=O)C(O)/C(C)=C/C=C/C2C=C(CO[C@H]3O[C@H](CO)[C@H](O)[C@H](O)[C@H]3O)C(C)CC23OC([O-])C(C3=O)C(O)/C=C/C2(C)C=C(C=O)C(C)CC23OC([O-])C(C3=O)C1O |  | IIIB |  | 0.16 µg/mL | 30.9% |
| CCCCCCCCCCCCCCCC(=O)NCC1CC(OP(=O)(O)OCC2CC(OP(=O)(O)OCC3CC(O)C(n4cnc5c(N)ncnc54)O3)C(n3cnc4c(N)ncnc43)O2)C(n2cnc3c(N)ncnc32)O1 |  | IIIB |  | 100 µM | 26.8% |

The first 2 rows once more:

compound	conditions	strain or isolate	mutations	tested at	result
CCCCCCCCCCCCCCCC(=O)NCC1OC(n2cnc3c(N)ncnc32)C(OP(=O)(O)OCC2OC(n3cnc4c(N)ncnc43)C(OP(=O)(O)OCC3CC(O)C(n4cnc5c(N)ncnc54)O3)C2O)C1O		IIIB		100 µM	60.2%
O=C(Oc1cc(S(=O)(=O)O)cc2cc(S(=O)(=O)O)ccc12)c1ccc(-c2ccc(C(=O)Oc3cc(S(=O)(=O)O)cc4cc(S(=O)(=O)O)ccc34)cc2)cc1				50 µM	99.8%

Inhibition is in % at the dose shown (toxicity tests: loss of growth or viability). Lines come from different laboratories, so protocols vary.